From patent publication US20250313611A1 (VIB VZW, published 2025)

Tests used:
[1] = target: T1, SARS-COV-2 Omicron BA.1 S protein (ACRObiosystems) (SARS-CoV-2 Omicron BA.1); test: ELISA, coated antigen, dilution series, OD450 [2/3]
[2] = target: T1, SARS-COV-2 Omicron BA.1 S protein …; test: ELISA, coated antigen, dilution series, OD450 [1/3]

| Binder | EC50 (read off the curve) [1] | EC50 (read off the curve) [2] |
| --- | --- | --- |
| VHH R3_DC2 (VHH) VHH: QVQLQESGGGLVQTGDSLRLSCAVSGRPFSTYTMGWFRQAPGKEREFVASMRWSGGTKYYSDSVKGRFSISRDNDQNTVNLQMNSLKPEDTAVYYCAAAYVSKANYGSLWYRNSGLYDYWGQGTQVTVSS | ~6 ng/mL |  |
| VHH R4_DC16 (VHH) VHH: QVQLQESGGGLVQAGDSLRLSCAVSGRPFSTYTMGWFRQAPGKEREFVAAMRWSGGTIYYADSVKGRFTISRDNAQNTVNLQMNSLKPEDTAVYYCAAAYVSKANYGSSWYRNSGLYDYWGQGTQVTVSS | ~10 ng/mL |  |
| VHH R4_DC20 (VHH) VHH: QVQLQESGGGLVQTGDSLRLSCAVSGRPFSTYTMGWFRQAPGKEREFVASMRWSGGTMNYADSVKGRFTISRDNDQNTVNLQMNSLKPEDTAVYYCAAAYVSKANYGSLWYRNSGLYDYWGQGTQVTVSS |  | ~5 ng/mL |
